Tests used:
Test in all cases: cell-based or functional assay
[1] = target: human voltage-gated sodium channel Nav1.7 (human), Q15858
[2] = target: human voltage-gated sodium channel Nav1.5 (human), Q14524
[3] = target: human voltage-gated sodium channel Nav1.3 (human), Q9NY46

For DCLGFMRKCIPDNDKCCRPNLVCSRTHKWCKYHF (modifications not checked) [[His33]GpTx-1(1-34)], the IC50, IWQ Use Nav1.7 [1] was 0.02 µM, the IC50, IWQ Use Nav1.5 [2] was 8.16 µM and the IC50, IWQ Use Nav1.3 [3] was 0.01 µM.

DCLGFMRKCIPDNDKCCRPNLVCSRTHKWCKYNF (modifications not checked) [[Asn33]GpTx-1(1-34)] gave an IC50, IWQ Use Nav1.7 [1] of 0.36 µM, an IC50, IWQ Use Nav1.5 [2] of 7.94 µM and an IC50, IWQ Use Nav1.3 [3] of 0.07 µM.

In the case of DCLGFMRKCIPDNDKCCRPNLVCSRTHKWCKYDF (modifications not checked) [[Asp33]GpTx-1(1-34)], the IC50, IWQ Use Nav1.7 [1] is reported as 0.77 µM, the IC50, IWQ Use Nav1.5 [2] is reported as 8.79 µM and the IC50, IWQ Use Nav1.3 [3] is reported as 0.17 µM.

For DCLGFMRKCIPDNDKCCRPNLVCSRTHKWCKYTF (modifications not checked) [[Thr33]GpTx-1(1-34)], the IC50, IWQ Use Nav1.7 [1] was 0.02 µM, the IC50, IWQ Use Nav1.5 [2] was 3.78 µM and the IC50, IWQ Use Nav1.3 [3] was 0.04 µM.

With DCLGFMRKCIPDNDKCCRPNLVCSRTHKWCKYSF (modifications not checked) [[Ser33]GpTx-1(1-34)] the IC50, IWQ Use Nav1.7 [1] was 0.04 µM, the IC50, IWQ Use Nav1.5 [2] was 6.28 µM and the IC50, IWQ Use Nav1.3 [3] was 0.06 µM.

YCLGFMRKCIPDNDKCCRPNLVCSRTHKWCKYVF (modifications not checked) [[Tyr1]GpTx-1(1-34)] showed an IWQ Use Nav1.7 [1] of 0.16 µM, an IWQ Use Nav1.5 [2] of 10.6 µM and an IWQ Use Nav1.3 [3] of 0.13 µM.

DCLGFMRKCIPDNDKCCRPNLVCSRTHKWCKYYF (modifications not checked) [[Tyr33]GpTx-1(1-34)] was tested, and the IWQ Use Nav1.7 (µM); IC50 of peak inward current, IonWorks Quattro [1] was 0.07 µM, the IWQ Use Nav1.5 (µM); IC50 of peak inward current, IonWorks Quattro [2] was over 5 µM and the IWQ Use Nav1.3 (µM); IC50 of peak inward current, IonWorks Quattro [3] was 0.03 µM.

For DCLGFMRKCIPDNDKCCRPNLVCSRTHKWCKYLF (modifications not checked) [[Leu33]GpTx-1(1-34)], the IWQ Use Nav1.7 (µM); IC50 of peak inward current, IonWorks Quattro [1] was 0.13 µM, the IWQ Use Nav1.5 (µM); IC50 of peak inward current, IonWorks Quattro [2] was over 5 µM and the IWQ Use Nav1.3 (µM); IC50 of peak inward current, IonWorks Quattro [3] was 0.07 µM.

With DCLGFMRKCIPDNDKCCRPNLVCSRTHKWCKYGF (modifications not checked) [[Gly33]GpTx-1(1-34)] the IWQ Use Nav1.7 (µM); IC50 of peak inward current, IonWorks Quattro [1] was 0.29 µM, the IWQ Use Nav1.5 (µM); IC50 of peak inward current, IonWorks Quattro [2] was over 5 µM and the IWQ Use Nav1.3 (µM); IC50 of peak inward current, IonWorks Quattro [3] was 0.04 µM.

DCLGFMRKCIPDNDKCCRPNLVCSRTHKWCKYVA (modifications not checked) [[Ala34]GpTx-1(1-34)] gave an IWQ Use Nav1.7 [1] of 7.19 µM, an IWQ Use Nav1.5 [2] of 9.33 µM and an IWQ Use Nav1.3 [3] of 4.76 µM.

For DCLGFMRKCIPDNDKCCRPNLVCSRTHKWCKYVK (modifications not checked) [[Lys34]GpTx-1(1-34)], the IWQ Use Nav1.7 [1] was 5.68 µM, the IWQ Use Nav1.5 [2] was 18.1 µM and the IWQ Use Nav1.3 [3] was 7.74 µM.

For DCLGFMRKCIPDNDKCCRPNLVCSRTHKWCKYVR (modifications not checked) [[Arg34]GpTx-1(1-34)], the IWQ Use Nav1.7 [1] was 3.58 µM, the IWQ Use Nav1.5 [2] was 8.99 µM and the IWQ Use Nav1.3 [3] was 4.69 µM.

DCLGFMRKCIPDNDKCCRPNLVCSRTHKWCKYVW (modifications not checked) [[Trp34]GpTx-1(1-34)] gave an IWQ Use Nav1.7 [1] of 0.26 µM, an IWQ Use Nav1.5 [2] of 10 µM and an IWQ Use Nav1.3 [3] of 0.18 µM.

Work on DCLGFMRKCIPDNDKCCRPNLVCSRTHKWCKYVI (modifications not checked) [[Ile34]GpTx-1(1-34)] yielded an IWQ Use Nav1.7 [1] of 0.28 µM, an IWQ Use Nav1.5 [2] of 10.8 µM and an IWQ Use Nav1.3 [3] of 0.28 µM.

Binder DCLGFMRKCIPDNDKCCRPNLVCSRTHKWCKYVL (modifications not checked) [[Leu34]GpTx-1(1-34)] has an IWQ Use Nav1.7 [1] of 0.24 µM, an IWQ Use Nav1.5 [2] of 8.46 µM and an IWQ Use Nav1.3 [3] of 0.13 µM.

In the case of ICLGFMRKCIPDNDKCCRPNLVCSRTHKWCKYVF (modifications not checked) [[Ile1]GpTx-1(1-34)], the IWQ Use Nav1.7 [1] is reported as 0.1 µM, the IWQ Use Nav1.5 [2] is reported as 8.15 µM and the IWQ Use Nav1.3 [3] is reported as 0.07 µM.

Work on DCLGFMRKCIPDNDKCCRPNLVCSRTHKWCKYVFA (modifications not checked) [GpTx-1(1-34)-Ala] yielded an IWQ Use Nav1.7 (µM) (IC50, IonWorks Quattro population patch clamp) [1] of 0.41 µM, an IWQ Use Nav1.5 (µM) (IC50, IonWorks Quattro population patch clamp) [2] of 14.2 µM and an IWQ Use Nav1.3 (µM) (IC50, IonWorks Quattro population patch clamp) [3] of 0.26 µM.

DCLGFMRKCIPDNDKCCRPNLVCSRTHKWCKYVFE (modifications not checked) [GpTx-1(1-34)-Glu] showed an IWQ Use Nav1.7 (µM) (IC50, IonWorks Quattro population patch clamp) [1] of 4.47 µM, an IWQ Use Nav1.5 (µM) (IC50, IonWorks Quattro population patch clamp) [2] of 19.6 µM and an IWQ Use Nav1.3 (µM) (IC50, IonWorks Quattro population patch clamp) [3] of 2.47 µM.
